Pooled drug test results. Numbers come from NIAID ChemDB, via PubChem.

Shared fields: target-level tests; agent: Hepatitis C virus; protein: Nonstructural protein 5B

Percent inhibition refers to the dose given; in toxicity tests it is the harm to the cells. ICn is the concentration giving n% inhibition. Lines come from different laboratories, so protocols vary. a–b is a range or a potency band. Blank or dashed fields: not listed here.

compound,endpoint,tested at,value
O=C(O)c1ccc(N2C(=O)C(=Cc3ccc(-c4ccccc4C(F)(F)F)o3)SC2=S)cc1,IC50,-,≤1 µM
O=C(NCc1ccccn1)c1ccc(S(=O)(=O)Nc2ccc(N3CCOCC3)cc2)cc1,inhibition,0.1 µg/mL,65%
CNC(=O)c1c(-c2ccc(F)cc2)oc2cc(N3CCOCC3)c(OCc3noc(C(C)(C)C)n3)cc12,IC50,-,≤0.5 µM
O=C(O)c1cccc(N2C(=O)C(=Cc3ccc(-c4cc(C(F)(F)F)ccc4Cl)o3)SC2=S)c1,IC50,-,≤1 µM
CC1(c2ccc(CCC3(C4CCCC4)CC(=O)CC(=O)O3)cc2F)OCCO1,IC50,-,1–10 µM
CNC(=O)c1c(-c2ccc(F)cc2)oc2cc(N3CCOCC3)c(OCCCl)cc12,IC50,-,≤0.5 µM
O=C(NCCN1CCOCC1)c1ccc(S(=O)(=O)Nc2ccc(N3CCOCC3)cc2)cc1,inhibition,1 µg/mL,61%
CNC(=O)c1c(-c2ccc(F)cc2)oc2cc(N(CC(O)c3ccc(F)cc3)S(C)(=O)=O)c(OC(C)C)cc12,IC50,-,≤0.5 µM
COC1=CC(=O)OC(CCc2cccc(C(C)C)c2)(C2CCCC2)C1,IC50,-,10–50 µM
COc1nc(Nc2ccc3cn[nH]c3c2)nc(NN2CCOCC2)n1,inhibition,10 µg/mL,60%
CNC(=O)c1c(-c2ccc(F)cc2)oc2cc(-c3nocc3CCO)c(OC)cc12,IC50,-,≤0.5 µM
COc1nc(Nc2ccc3[nH]ncc3c2)nc(N2CCN(CCO)CC2)n1,inhibition,1 µg/mL,45%
O=C(O)c1ccc(N2C(=O)C(=Cc3ccc(-c4ccc(Cl)s4)o3)SC2=S)cc1,IC50,-,≤1 µM
CNC(=O)c1c(-c2ccc(F)cc2)oc2cc(C(C)=O)c(C)cc12,IC50,-,≤0.5 µM
O=C(NCCc1ccncc1)c1ccc(S(=O)(=O)Nc2ccc(N3CCOCC3)cc2)cc1,inhibition,0.1 µg/mL,39%
CC(C)(C)c1cccc(Oc2cccc(-c3ccc(C=C4SC(=S)N(CC(=O)O)C4=O)o3)c2)c1,IC50,-,≤1 µM
CCOc1cc2c(C(=O)NC)c(-c3ccc(F)cc3)oc2cc1N(CC)CC,IC50,-,≤0.5 µM
CN(C)CCN(Cc1ccccc1)C(=O)c1ccc(S(=O)(=O)Nc2ccc(N3CCOCC3)cc2)cc1,inhibition,10 µg/mL,95%
CCCN(C1=C(O)CC(C2CCCC2)(C2CCCC2)OC1=O)c1cccc(NS(=O)(=O)c2ccccn2)c1,IC50,-,10–50 µM
COc1nc(NCCc2ccccn2)nc(Nc2ccc3[nH]ncc3c2)n1,inhibition,1 µg/mL,28%
O=C(O)CCN1C(=O)C(=Cc2ccc(-c3cc(C(F)(F)F)ccc3Cl)o2)SC1=S,IC50,-,≤1 µM
Cc1cc(C)n2nc(SC3=C(O)CC(CCc4ccc(OC(C)C)c(Cl)c4)(C4CCCC4)OC3=O)nc2n1,IC50,-,<1 µM
CCOC(=O)N1CCN(c2nc(Nc3ccc4[nH]ncc4c3)nc(OC)n2)CC1,inhibition,1 µg/mL,15%
CS(=O)(=O)c1ccc(CCC2(C3CCCC3)CC(=O)CC(=O)O2)cc1,IC50,-,1–10 µM
CNC(=O)c1c(-c2ccc(F)cc2)oc2cc(C(=O)CO)c(OC)cc12,IC50,-,≤0.5 µM
O=C1O[C@@](CCc2cccc(O)c2)(C2CCCC2)CC(O)=C1N(c1ccccc1)c1ccccc1,IC50,-,10–50 µM
CNC(=O)c1c(-c2ccc(F)cc2)oc2cc(N3CCCCC3)c(OC(C)C)cc12,IC50,-,≤0.5 µM
CNC(=O)CN1CCN(c2nc(Nc3ccc4[nH]ncc4c3)nc(OC)n2)CC1,inhibition,0.1 µg/mL,4%

2 of the rows above, restated:

{"compound": "CNC(=O)c1c(-c2ccc(F)cc2)oc2cc(N3CCCCC3)c(OC(C)C)cc12", "endpoint": "IC50", "value": "≤0.5 µM"}
{"compound": "CCCN(C1=C(O)CC(C2CCCC2)(C2CCCC2)OC1=O)c1cccc(NS(=O)(=O)c2ccccn2)c1", "endpoint": "IC50", "value": "10–50 µM"}